Measurements reported in patent US20060275317A1, “Vaccine compositions for prevention of chronic and infectious diseases” (Biokit S.A., priority 2003, published 2006).

How the values were obtained:
[1] = test system: anti-T. pallidum antibodies in human sera; experiment: Bioelisa Syphilis ELISA (second and third generation format) with added lysozyme
[2] = test system: antibodies in human syphilis sera; experiment: Syphilis hemagglutination assay with GST-Tp17 coated red cells supplemented with lysozyme; conditions: for effect on intensity of hemagglutination: 3 μg lysozyme/1 μg Tp17, borderline human syphilitic sera; for samples showing improvement in sensitivity of the assay: 594 units human lysozyme/μg GST-Tp17, 10 human syphilitic sera

“human lysozyme: human lysozyme (NP_000230); breast milk (Sigma) or recombinant (Ventria) depending on the example” was tested. Which “response of syphilis-negative human sera” value [1] did it give?
The value was “does not modify the response”.

What about the “increase in signal intensity” value ([1]; second generation format, lysozyme added to the plate at 2.86 μg/ml, syphilis-positive sera) of the same substance?
The value was “about 20%”.

What about the “increase in signal intensity” value ([1]; third generation format, lysozyme in sample and conjugate dilution buffer, 3 out of 4 sera) of the same substance?
Its value is “about 200%”.

And the “effect on intensity of hemagglutination” value [2]?
Its value is “improves the intensity of hemagglutination”.

Which results are given for “recombinant human lysozyme: purified recombinant human lysozyme from transgenic rice (159-53LZ-90P; Ventria Bioscience)”?
samples negative without lysozyme that were positive with lysozyme ([2]; 34 real positive samples): 14 of the 19; false positive results ([2]; 200 blood bank samples): does not give false positives results; samples showing improvement in sensitivity of the assay [2]: 6 out of the 10

How did the “effect on intensity of hemagglutination” value [2] turn out when “chicken lysozyme: purified chicken egg white lysozyme (Sigma-Aldrich; P00698)” was run?
Its value is “did not enhance the response”.

How did the “samples showing improvement in sensitivity of the assay” value [2] turn out when “natural human breast milk lysozyme: purified natural human breast milk lysozyme (L-6394; Sigma-Aldrich)” was run?
Its value is 6 out of the 10.
